Experimental data published in PubChem BioAssay AID540336 (Broad Institute, 2011).
The entries are a selection whose mix differs from that of the whole data set. Calls of active or inactive are those of the source.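 How the source made its calls: active means inhibition of at least 50% in every replicate; inconclusive means best replicate reaches 50% inhibition but some replicates fall short; inactive means the rest.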

The chains behind the UniProt entries cited, without tags or fusion partners.
UniProt Q5AAJ8, whole entry, looked up: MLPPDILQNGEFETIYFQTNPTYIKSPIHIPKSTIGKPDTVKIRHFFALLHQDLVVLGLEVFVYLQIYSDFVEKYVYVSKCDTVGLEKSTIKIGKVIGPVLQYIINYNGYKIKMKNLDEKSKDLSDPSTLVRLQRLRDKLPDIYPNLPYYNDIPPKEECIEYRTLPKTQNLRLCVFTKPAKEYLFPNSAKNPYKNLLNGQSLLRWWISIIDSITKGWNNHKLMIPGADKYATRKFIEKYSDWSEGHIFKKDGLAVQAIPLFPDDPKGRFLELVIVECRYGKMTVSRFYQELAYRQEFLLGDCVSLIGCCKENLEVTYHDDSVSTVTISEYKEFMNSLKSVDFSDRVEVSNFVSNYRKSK

target: Histone acetyltransferase RTT109 (Candida albicans (strain SC5314 / ATCC MYA-2876)) (UniProt Q5AAJ8); experiment: inhibitors of C. albicans Rtt109/Vps75 HAT, primary screen, biochemical, ThioGlo CoA-SH fluorescence, plate reader (AID 540336); conditions: purified Rtt109/Vps75, ThioGlo CoA-SH fluorescence, 4 h; at 34.9 µM; hits give high values

SMILES | inhibition
CN(C)C(=O)OCCc1n(C)cc[n+]1C | inactive: -4.47%
CC(C)=N/N=C(\N)N[N+](=O)[O-] | inactive: -4.58%
CC1CCN(C(=O)Oc2c(Cl)cc(Cl)c3cccnc23)CC1 | inactive: -3.96%
C[N+]1=C2C=CC=CC=C2SC12C([N+](=O)[O-])=CC([N+](=O)[O-])=C[C-]2[N+](=O)[O-] (stereo not given) | inactive: -3.02%
Nc1ccc([As](=O)(O)c2ccc(N)cc2)cc1 | inactive: 7.34%
CCN(/C(=N/P(=O)(N1CCOCC1)N1CCOCC1)N1CCOCC1)c1ccc(OC)cc1 | inactive: -5.34%
CC(=O)N1C2C3N(C(C)=O)C1C1N(C(C)=O)C(C(N1C(C)=O)N3C(C)=O)N2C(C)=O | inactive: 0.958%
O=[N+]([O-])c1cccc2n[nH]nc12 | inactive: -3.68%
O=[N+]([O-])c1cc([N+](=O)[O-])c(CCNc2ccccc2)c([N+](=O)[O-])c1 | inactive: 2.21%
CCc1nc2c(n1)c1c(non1O)c1c2no[n+]1[O-] | inactive: -4.89%
Cc1ccc(NP(=O)(Oc2ccccc2)Oc2ccccc2)nc1 | inactive: -7.41%
COc1ccc(C2=NCC(CBr)S2)cc1 (stereo not given) | inactive: -3.08%
O=[N+]([O-])c1cccc(NC2=NCC(CBr)S2)c1 (stereo not given) | inactive: 48.9%
COC(=O)C1(C)COP(=O)(Nc2ccccc2)OC1 (stereo not given) | inactive: -2.47%
O=C(O)CNc1ccc([As](=O)(O)O)cc1 | inactive: -1.78%
CC(C)(C)C(=O)NC(Sc1ccncn1)C(Cl)(Cl)Cl (stereo not given) | inactive: -1.28%
O=C(Nc1cc([As](=O)(O)O)ccc1O)c1ccccc1 | inactive: 9.86%
O=P1(N(CCCl)CCCl)OCCCS1 (stereo not given) | inactive: -8.45%
CCN(N=Nc1nonc1N)c1nonc1N | inactive: 1.88%
Nc1cccc2ccc([As](=O)(O)O)cc12 | inactive: 1.83%
CN(C(=O)Cc1ccc(Cl)c(Cl)c1)[C@H]1CCCC[C@@H]1N1CCCC1 | inactive: 2.11%
Cc1ccc(NP(=O)(Oc2ccccc2F)Oc2ccccc2F)nc1 | inactive: 1.3%

SMILES | inhibition
CCOP(=O)(Nc1ccccc1)OCC | inactive: -0.242%
Cc1cc(SC(NC(=O)c2ccc(F)cc2)C(Cl)(Cl)Cl)ncn1 (stereo not given) | inactive: -8.94%
CCCC1OP(N)(=O)OCC1CC (stereo not given) | inactive: 2.84%
O=C(O)c1ccccc1[As](=O)(O)O | inactive: 3.44%
CC(=O)Nc1ccc([As](=O)(O)O)cc1 | inactive: -1.19%
O=P(Nc1nc2ccc(Cl)cc2s1)(c1ccccc1)c1ccccc1 | inactive: 3.25%
CC(C)CC(=O)NC(Sc1ccc(Cl)cc1)C(Cl)(Cl)Cl (stereo not given) | inactive: -1.82%
Nc1cc(N)c2nonc2c1[N+](=O)[O-] | inactive: 1.61%
O=C(NC(Sc1ccncn1)C(Cl)(Cl)Cl)c1ccccc1 (stereo not given) | inactive: 5.69%
Oc1ccccc1CNc1ccccn1 | inactive: -15.5%
COc1ccccc1OP(=O)(Nc1ccc(C)cn1)Oc1ccccc1OC | inactive: -3.53%
Clc1ccc(Cl)c(NC2=NCC(CBr)S2)c1 (stereo not given) | inactive: -0.665%
CN1CCCC(OC(=O)C(c2ccccc2)c2ccccc2)C1 (stereo not given) | inactive: -1.39%
NC(=O)c1cc([N+](=O)[O-])cc([N+](=O)[O-])c1N | inactive: 14.7%
Cc1ccc(N/C(=N/P(=O)(N2CCOCC2)N2CCOCC2)N2CCOCC2)cc1 | inactive: -8.25%
CN(C(=O)Cc1ccc(Cl)c(Cl)c1)[C@H]1CCCC[C@H]1N1CCCC1 | inactive: 2.65%
CC(=O)Nc1ccc(Oc2c([N+](=O)[O-])cc([N+](=O)[O-])cc2[N+](=O)[O-])cc1 | inactive: 4.98%
CC(=O)Nc1ccc([As](=O)(O)O)c(O)c1 | inactive: 1.38%
COC(=O)C1(C)COP(=O)(NCc2ccccc2)OC1 (stereo not given) | inactive: 1.67%
N#C/C(=C\c1ccc(N(CCBr)CCBr)cc1)C(N)=O | inactive: 6.08%
CC(=O)c1ccc(N2CC2c2ccncc2)cc1 (stereo not given) | inactive: 5.05%
C[C@@H]1C=CCP(=O)(Oc2ccccc2)O1 (stereo not given in full) | inactive: 4.44%

SMILES | inhibition
C[C@H]1OP(=O)(Oc2ccccc2)C[C@@H]2O[C@@H]21 (stereo not given in full) | inactive: 1.17%
Cc1ccccc1CN(C)C(=O)COC(=O)C(O)(c1ccccc1)c1ccccc1 | inactive: 6.95%
CCc1cc(O)c([N+](=O)[O-])c(C)c1[N+](=O)[O-] | inactive: -2.84%
CC(C)(C)C(=O)NC(Sc1ccccc1)C(Cl)(Cl)Cl (stereo not given) | inactive: 4.76%
CCOc1ccc(C2=NCC(CBr)S2)cc1 (stereo not given) | inactive: -11.8%
O=P1(Nc2nc3ccc(Cl)cc3s2)COc2ccccc2O1 (stereo not given) | inactive: 6.27%
CN(C)C(=O)Oc1noc2ccccc12 | inactive: -9.24%
O=c1c2cc([N+](=O)[O-])ccc2[nH]c2c([N+](=O)[O-])cc([N+](=O)[O-])cc12 | inactive: -1.71%
Cc1ccccc1OP(=O)(Nc1ccccn1)Oc1ccccc1C | inactive: 4.49%
CC(NC(=O)COC(=O)C(O)(c1ccccc1)c1ccccc1)c1ccccc1 (stereo not given) | inactive: 3.15%
Cc1ccc(OP(=O)(Nc2ccccn2)Oc2ccc(C)cc2)cc1 | inactive: 3.88%
CC(=O)NC(SC(=S)N(CC(C)C)CC(C)C)C(Cl)(Cl)Cl (stereo not given) | inactive: 0.595%
COC(=O)c1cc2c(s1)N=C(c1ccccc1)N(C)P2(=O)N1CCOCC1 (stereo not given) | inactive: 1.05%
CCC(=O)N1C2C3N(C(=O)CC)C1C1N(C(=O)CC)C(C(N1C(=O)CC)N3C(=O)CC)N2C(=O)CC | inactive: -14.8%
O=C(OC1CN2CCC1CC2)c1ccccc1 (stereo not given) | inactive: -9.34%
O=P1(N(CCCl)CCCl)OCCC2CCCCN21 (stereo not given) | inactive: -1.12%
O=C(NC1CCS(=O)(=O)C1)NP(=S)(Oc1ccccc1)Oc1ccccc1 (stereo not given) | inactive: -5.85%
CCNC(=S)/N=C(\N)N[N+](=O)[O-] | inactive: -6.2%
Cc1ccc(NP(=O)(Oc2cccc(C)c2)Oc2cccc(C)c2)nc1 | inactive: -4.23%
c1ccc(-c2nn[nH]n2)c(-c2nn[nH]n2)c1 | inactive: -3.61%
Nc1ccc([As](=O)(O)c2ccc([N+](=O)[O-])cc2)cc1 | inactive: -9.45%
